Laboratory results reported in patent publication US10059741B2 (priority 2015, dated 2018).
“And” between values parts separate entries of the source, which are not always exact repeats. Identical values can stand only once. Like-named read-outs stand apart in the source and are kept apart here. Bridge positions count the residues as written; N and C are the ends. Square brackets hold non-standard residues; d marks the D form. Peptide text beside a SMILES is read from it. R8 = C=CCCCCCC[C@@](C)(N)C(=O)O; S5 = C=CCCC[C@](C)(N)C(=O)O; Nle = CCCC[C@H](N)C(=O)O; Aib = CC(C)(N)C(=O)O

How the values were obtained:
Set-up in all cases: unit not given beside the values
[1] = tested on: Influenza B Florida/04/2006; test: Cytopathic effect (CPE) inhibition in MDCK cells, neutral red; type: cell-based
[2] = tested on: Influenza A H3N2 Influenza A/Brisbane/10/2007; type: cell-based, influenza A virus
[3] = tested on: Influenza B/Brisbane/60/2008; type: cell-based
[4] = tested on: Influenza A H1N1 Influenza A/California/7/2009; type: cell-based, influenza A virus
[5] = tested on: influenza virus, various viral strains; test: Influenza antiviral evaluation assay (CPE, neutral red dye uptake) in MDCK cells against various viral strains (Tables 8, 9); type: cell-based
[6] = tested on: Influenza B Brisbane/60/2008; test: Cytopathic effect (CPE) inhibition in MDCK cells, neutral red; type: cell-based
H5N1 A/Duck/MN/1525/81 = type: cell-based, influenza A virus
[7] = tested on: H1N1 A/Solomon Island/03/2006; type: cell-based, influenza A virus
H7N9 A/Anhui/1/2013 = type: cell-based, influenza A virus
[8] = tested on: influenza virus, various viral strains; type: cell-based
[9] = SI50=CC50/EC50, H1N1 A/Solomon Is./3/2006-M, Neutral Red

| Compound | SI50 [1] | SI50 [2] | SI90 [2] | SI50 [3] | SI90 [3] | SI50 [4] | SI90 [4] | SI50 [6] | SI50 [7, 9] | SI50 (H7N9 A/Anhui/1/2013) | also measured |
| --- | --- | --- | --- | --- | --- | --- | --- | --- | --- | --- | --- |
| NC(=O)c1ncn([C@@H]2O[C@H](CO)[C@@H](O)[C@H]2O)n1 [Ribavirin, reference compound] | >67 | >36 | >8 | >2 | 1 | >15 | >6 | >57 | – | – | SI50 [5]: >33 and >34 and >36; SI50 (H5N1 A/Duck/MN/1525/81): >33 and >57 |
| CCCC[C@H](NC(C)=O)C(=O)N[C@@H](CC(=O)O)C(=O)N[C@H](C(=O)N[C@@H](CC(N)=O)C(=O)N[C@]1(C)CCCCCCC=CCCC[C@@](C)(C(=O)N[C@@H](CCC(N)=O)C(=O)N[C@@H](C)C(=O)N[C@@H](C)C(=O)N[C@@H](C)C(=O)N[C@@H](C)C(N)=O)NC(=O)[C@H](C)NC(=O)[C@H](CC(C)C)NC(=O)[C@H](Cc2ccccc2)NC(=O)[C@H](CC(C)C)NC(=O)[C@H](CC(C)C)NC(=O)[C@H]([C@@H](C)O)NC1=O)C(C)C [SP-27] (Ac-[Nle]DVN[R8]TLLFLA[S5]QAAAA-NH2; staple 5-12) | – | – | – | – | – | – | – | – | >1.3 | >5.2 | – |
| CCCC[C@H](NC(C)=O)C(=O)N[C@@H](CC(=O)O)C(=O)N[C@H](C(=O)N[C@@H](CC(N)=O)C(=O)N[C@]1(C)CCCCCCC=CCCC[C@@](C)(C(=O)N[C@@H](C)C(=O)N[C@@H](C)C(=O)N[C@@H](C)C(=O)N[C@@H](C)C(=O)N[C@@H](C)C(N)=O)NC(=O)[C@H](C)NC(=O)[C@H](CC(C)C)NC(=O)[C@H](Cc2ccccc2)NC(=O)[C@H](CC(C)C)NC(=O)[C@H](CC(C)C)NC(=O)[C@H]([C@@H](C)O)NC1=O)C(C)C [SP-25] (Ac-[Nle]DVN[R8]TLLFLA[S5]AAAAA-NH2; staple 5-12) | – | – | – | – | – | – | – | – | >15 | >1.5 | – |
| CCCC[C@H](NC(C)=O)C(=O)N[C@@H](CC(=O)O)C(=O)N[C@H](C(=O)N[C@@H](CC(N)=O)C(=O)N[C@@]1(C)CCCC=CCCC[C@@](C)(C(=O)N[C@@H](CC(C)C)C(=O)N[C@@H](CCCCN)C(=O)N[C@H](C(=O)NC(C)(C)C(=O)N[C@@H](C)C(=O)N[C@@H](CCC(N)=O)C(N)=O)C(C)C)NC(=O)[C@H](CC(C)C)NC(=O)[C@H](CC(C)C)NC(=O)[C@H]([C@@H](C)O)NC1=O)C(C)C [AP1, Ac-NleDVN$TLL$LKVAibAQ-NH2] (Ac-[Nle]DVN[S5]TLL[S5]LKV[Aib]AQ-NH2; staple 5-9) | 7.8 | 1 | 1 | 1 | 1 | 1 | 1 | >14 | – | 0 | SI50 [7]: >33 and >56; SI50 (H5N1 A/Duck/MN/1525/81): >16; SI90 [8]: 1 |
| CCCC[C@H](NC(C)=O)C(=O)N[C@@H](CC(=O)O)C(=O)N[C@H](C(=O)N[C@@H](CC(N)=O)C(=O)N[C@]1(C)CCCCCCC=CCCC[C@@](C)(C(=O)N[C@@H](C)C(=O)N[C@@H](C)C(=O)N[C@@H](CCC(N)=O)C(N)=O)NC(=O)[C@H](C)NC(=O)[C@H](CC(C)C)NC(=O)[C@H](Cc2ccccc2)NC(=O)[C@H](CC(C)C)NC(=O)[C@H](CC(C)C)NC(=O)[C@H]([C@@H](C)O)NC1=O)C(C)C [SP-18] (Ac-[Nle]DVN[R8]TLLFLA[S5]AAQ-NH2; staple 5-12) | – | – | – | – | – | – | – | – | >3.4 | 0 | SI90 ([8]; Influenza A H1N1 California/07/2009, VYR/Neutral Red): >16; SI90 ([8]; Influenza A H3N2 Perth/16/2009, VYR/Neutral Red): 0 |
| CCCC[C@H](NC(C)=O)C(=O)N[C@@H](CC(=O)O)C(=O)N[C@H](C(=O)N[C@@H](CC(N)=O)C(=O)N[C@@]1(C)CCCC=CCCC[C@@](C)(C(=O)N[C@@H](CC(C)C)C(=O)N[C@@H](C)C(=O)N[C@H](C(=O)NC(C)(C)C(=O)N[C@@H](C)C(=O)N[C@@H](CCC(N)=O)C(N)=O)C(C)C)NC(=O)[C@H](CC(C)C)NC(=O)[C@H](CC(C)C)NC(=O)[C@H]([C@@H](C)O)NC1=O)C(C)C [SP-6] (Ac-[Nle]DVN[S5]TLL[S5]LAV[Aib]AQ-NH2; staple 5-9) | 5.4 | 1 | 1 | 1 | 1 | 1 | 1 | >14 | – | 0 | SI50 [8]: 1; SI90 [8]: 1 and >1.5 |
| CCCC[C@H](NC(C)=O)C(=O)N[C@@H](CC(=O)O)C(=O)N[C@H](C(=O)N[C@@H](CC(N)=O)C(=O)N[C@@]1(C)CCCC=CCCC[C@@](C)(C(=O)N[C@@H](CC(C)C)C(=O)N[C@@H](C)C(=O)N[C@H](C(=O)N[C@@H](CCC(N)=O)C(=O)NC(C)(C)C(=O)N[C@@H](C)C(=O)N[C@@H](C)C(=O)N[C@@H](C)C(N)=O)C(C)C)NC(=O)[C@H](CC(C)C)NC(=O)[C@H](CC(C)C)NC(=O)[C@H]([C@@H](C)O)NC1=O)C(C)C [SP-21] (Ac-[Nle]DVN[S5]TLL[S5]LAVQ[Aib]AAA-NH2; staple 5-9) | – | – | – | – | – | – | – | – | >19 | >2.9 | – |
| CCCC[C@H](NC(C)=O)C(=O)N[C@@H](CC(=O)O)C(=O)N[C@H](C(=O)N[C@@H](CC(N)=O)C(=O)N[C@@]1(C)CCCC=CCCC[C@@](C)(C(=O)N[C@@H](CC(C)C)C(=O)N[C@@H](C)C(=O)N[C@H](C(=O)N[C@@H](CCC(N)=O)C(=O)N[C@@H](C)C(=O)N[C@@H](C)C(=O)NC(C)(C)C(=O)N[C@@H](C)C(N)=O)C(C)C)NC(=O)[C@H](CC(C)C)NC(=O)[C@H](CC(C)C)NC(=O)[C@H]([C@@H](C)O)NC1=O)C(C)C [SP-22] (Ac-[Nle]DVN[S5]TLL[S5]LAVQAA[Aib]A-NH2; staple 5-9) | – | – | – | – | – | – | – | – | – | >3.8 | SI50 [7]: >3.4 |
